According to patent US20040242870A1, “Antiviral methods and compounds” (priority 2000, published 2004):

What follows are compounds tested on HIV-1 strain RoJo (assay: PBMC time-of-addition assay (RT in cell-free supernatant at 6 days)). Details: −4 h pre (relative to infection).
Assay type: cell-based
Procedure: Peripheral blood monocular cells (PBMCs) were obtained from normal hepatitis and HIV-1 negative donors by ficoll hypaque gradient separation. The mononuclear cells were washed to remove residual separation media, counted, viability determined and resuspended in RPMI 1640 medium supplemented with 15 % FBS (heat inactivated), 2 mM L-glutamine, 100 U/mL penicillin, 100 μg/mL streptomycin, and 10 μg/mL gentamycin with 2 μg/mL phytohemagluttin (PHA) at 1×10^6 cells/mL. The cells were cultured for 48 to 72 h at 37° C., 5% CO2. Following incubation, cells were collected by centrifugation, washed and resuspended in RPMI 1640 supplemented with 15% FBS (heat inactivated), 2 mM L-glutamine, 100 U/mL penicillin, 100 μg/mL streptomycin, and 10 μg/mL gentamycin with 20 U/mL recombinant IL-2 (R & D Systems, Minneapolis, Minn.). IL-2 was included in the culture medium to maintain the cell division initiated by the PHA mitogenic stimulation, and promote optimal growing conditions for the PBMCs. The cultures were then maintained until use by ½ culture volume change with fresh IL-2 containing medium every 3 days.
Human peripheral blood mononuclear cells from a minimum of 2 donors, that have been blasted with PHA and IL-2, were counted, viability determined by Trypan Blue dye exclusion and mixed in equal ratios. Pooled donors were used to minimize the variability observed between individual donors which results from quantitative and qualitative differences in HIV infection and overall response to the PHA and IL-2 of primary lymphocyte populations. The cells were resuspended at 1×10^6 cells/mL in RPMI 1640 without phenol red supplemented with 15% Fetal Bovine Serum (heat inactivated), 2 mM L-glutamine, 100 U/mL penicillin, 100 μg/mL streptomycin, 10 μg/Ln gentamycin and IL-2 (20 U/mL, R&D Systems, Minneapolis, Minn.). Fifty microliters of cells were then distributed to the inner 60 wells of a 96 well round bottom microtiter culture plate in a standard format developed by the Infectious Disease Research department of Southern Research Institute. Each plate contains cell control wells (cells only), virus control wells (cells plus virus), and experimental wells (drug plus cells plus virus). Alternatively, cells were cultured in T25 cm^2 or T75 cm^2 tissue culture flasks at a starting density of 1×10^6 cells per ml. Serially diluted compounds were added to the microtiter plate or tissue culture flask followed by the appropriate pre-titered strain of HIV-1. For virus replication inhibition experiments the HIV-1 strain RoJo was used. […] Culture were also examined microscopically, any abnormalities noted, and in the case of tissue culture flasks cell counts and viability determined by Trypan Blue Dye exclusion. […]
In the case of `Cc1cn([C@H]2C[C@H](N=[N+]=[N-])[C@@H](CO)O2)c(=O)[nH]c1=O` [AZT], the TI is reported as over 5000.
`CC(C)=CCCC1(C)CCc2c(O)cc(C(C)(C)CCCC(C)C)cc2O1` (stereo not shown) [IG-08, 3,4-Dihydro-2-methyl-2-(4-methyl-3-pentenyl)-7-(1,1,5-trimethylhexyl)-2H-1-benzopyran-5-ol] was tested, and the TI was over 16.
With `C=C(C)[C@@H]1CCC(C)=C[C@H]1c1c(O)cc(CCCCC)cc1O` [Cannabidiol, reference compound] the TI was over 8.3.
`COc1cc(C(C)(C)CCCC(C)C)cc(OC)c1OC` [IG-07, 1-(1,1,5Trimethylhexyl)-3,4,5-trimethoxybenzene] was tested, and the TI was over 2.5.
